Assay results reported in publication PMC12702239.
Construct, isoform or probe ends are uncertain for at least one entry. At least one verdict rests on a figure or table, not on a statement of the authors.

Assays:
[1] = biological target: CoV-2 N (nucleocapsid) (SARS-CoV-2) (UniProt P0DTC9); experiment: fluorescence anisotropy; details: single strands preferred, FP: 25 mM Tris-HCl pH 7.6, 50 mM NaCl, no Mg2+, 5 nM labelled nucleic acid, 5 min, temperature not stated, Kd from Hill fits (values not in the text), recombinant protein, residues 1-419, protein details: His6, label: 3'-6-FAM
[2] = biological target: CoV-2 Nsp13 helicase (SARS-CoV-2) (UniProt P0DTD1); experiment: fluorescence anisotropy; details: single strands preferred, recombinant protein, protein details: N-terminal SUMO tag removed with SUMO protease, label: 3'-6-FAM

Row | Sequence | binding result ([1]; single-stranded DNA) | binding result ([2]; single-stranded DNA) | binding result ([1]; RNA over DNA) | binding result ([2]; RNA over DNA)
1 | CGATGTTTTATTTACATTGTA [D-S21] | binds | binds |  | 
2 | UACAAUGUAAAUAAAACAUCG [R-S21] |  |  | binds | binds
